Results of unrelated studies side by side (data: NIAID ChemDB).

Common to all: whole-cell or culture tests

Percent inhibition refers to the dose given; in toxicity tests it is the harm to the cells. An empty or dashed field is not shown. ECn: concentration that inhibits the pathogen or its effect by n%. Lines come from different laboratories, so protocols vary.

structure | tested at | strain or isolate | organism | cells | endpoint | method | value
CCN1C2=NC[C@H](Cc3ccccc3)N2C[C@@H]1CC1CCCCC1 |  | ATCC 32045 | Cryptococcus neoformans |  | EC50 |  | 41 µg/mL
Nc1ccc(S(=O)(=O)Nc2cnc3ccccc3n2)cc1 | 20 µg/mL | Human isolate | Cryptosporidium parvum | L929 | inhibition |  | 83.15%
O=c1[nH]c(=O)n([C@H]2C[C@H](O)[C@@H](CO)O2)cc1/C=C/Br | 50 µg/mL |  | Cryptosporidium parvum |  | inhibition |  | 7%
CCCc1ncc(C[n+]2ccccc2C)c(N)n1 | 4 µg/mL | Calf isolate | Cryptosporidium parvum | L929 | inhibition |  | 39.22%
Nc1ncnc2c1ncn2[C@@H]1O[C@H](CO)[C@@H](O)[C@@H]1O | 25 µg/mL |  | Cryptosporidium parvum |  | inhibition |  | 16%
c1ccc(C[C@H]2CN=C3N(CCC45CC6CC(CC(C6)C4)C5)[C@@H](Cc4ccccc4)CN32)cc1 |  | ATCC 32045 | Cryptococcus neoformans |  | EC50 |  | 6.3 µg/mL
CC(=O)N[C@@H](CC(C)C)C(=O)N[C@@H](CC(C)C)C(=O)N[C@H](C=O)CCCN=C(N)N | 10 µg/mL |  | Cryptosporidium parvum |  | inhibition | cell count / microscopy | 35.2%
COC(=O)Nc1nc2ccc(Sc3ccccc3)cc2[nH]1 |  | IU8698 | Cryptococcus neoformans |  | EC90 |  | 0.014 µg/mL
CN(C/C=C/C#CC(C)(C)C)Cc1cccc2ccccc12 |  | CCUG 18919 | Cryptococcus spp. |  | MIC |  | 0.5 µg/mL
Cc1cn([C@@H]2O[C@H](CO)[C@@H](O)[C@@H]2O)c(=O)[nH]c1=O | 50 µg/mL |  | Cryptosporidium parvum |  | inhibition |  | 90%
CC1(C)N=C(N)N=C(N)N1c1ccc(Cl)cc1 | 4 µg/mL | Calf isolate | Cryptosporidium parvum | L929 | inhibition |  | 22.46%
C1CCC(C[C@H]2CN3C(=NC[C@H]3CC3CCCCC3)N2CCC23CC4CC(CC(C4)C2)C3)CC1 |  | ATCC 32045 | Cryptococcus neoformans |  | EC50 |  | 2.7 µg/mL
N/C(=N\N=C\c1ccc(Cl)cc1)N/N=C/c1ccc(Cl)cc1 | 0.032 µg/mL | Human isolate | Cryptosporidium parvum | L929 | inhibition |  | -1.26%
CC(=O)N[C@@H](CC(C)C)C(=O)N[C@@H](CC(C)C)C(=O)N[C@H](C=O)CCCN=C(N)N | 3.125 µg/mL |  | Cryptosporidium parvum |  | inhibition |  | 41.3%
CC(C)N=C(N)/N=C(\N)Nc1ccc(Cl)cc1 | 0.032 µg/mL | Calf isolate | Cryptosporidium parvum | L929 | inhibition |  | -6.11%
Nc1ccn([C@@H]2O[C@H](CO)[C@@H](O)[C@@H]2O)c(=O)n1 | 50 µg/mL |  | Cryptosporidium parvum |  | inhibition |  | 81%
CC(C)(C)C1CCC(CN2C3=NC[C@H](C4CCCCC4)N3C[C@H]2CC2CCCCC2)CC1 |  | ATCC 32045 | Cryptococcus neoformans |  | EC50 |  | 1.7 µg/mL
O=c1[nH]c(=O)n([C@H]2C[C@H](O)[C@@H](CO)O2)cc1I | 2 µg/mL |  | Cryptosporidium parvum |  | inhibition |  | 75%
C[C@H]1[C@H](O)[C@@H](C)/C=C/C=C/C=C/C=C/C=C/C=C/C=C/[C@H](O[C@@H]2O[C@H](C)[C@@H](O)[C@H](N)[C@@H]2O)C[C@@H]2O[C@](O)(C[C@@H](O)C[C@@H](O)CC[C@H](O)[C@@H](O)C[C@@H](O)CC(=O)O[C@H]1C)C[C@H](O)[C@H]2C(=O)O | 20 µg/mL | Calf isolate | Cryptosporidium parvum | L929 | inhibition |  | -33.33%
CCCOc1ccc2nc(NC(=O)OC)[nH]c2c1 |  | IU8698 | Cryptococcus neoformans |  | EC90 |  | 2.1 µg/mL
N#CC(c1ccc(Cl)cc1)c1c(Cl)cc(-n2ncc(=O)[nH]c2=O)cc1Cl | 4 µg/mL | Calf isolate | Cryptosporidium parvum | L929 | inhibition |  | 15.04%
COC(=O)Nc1nc2ccccc2[nH]1 |  | ATCC 14116 | Cryptococcus neoformans |  | EC50 |  | <2.3 µg/mL
Nc1nc2c(ncn2COCCO)c(=O)[nH]1 | 25 µg/mL |  | Cryptosporidium parvum |  | inhibition |  | 0%

For reference, 2 entries again:

{"structure": "COC(=O)Nc1nc2ccc(Sc3ccccc3)cc2[nH]1", "strain or isolate": "IU8698", "organism": "Cryptococcus neoformans", "endpoint": "EC90", "value": "0.014 µg/mL"}
{"structure": "CCN1C2=NC[C@H](Cc3ccccc3)N2C[C@@H]1CC1CCCCC1", "strain or isolate": "ATCC 32045", "organism": "Cryptococcus neoformans", "endpoint": "EC50", "value": "41 µg/mL"}